# Sequence variants of PSTVd loop 15 after infection

Source: Wu et al. 2024 (doi:10.1371/journal.ppat.1012142), supplementary data.

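A pool of all variants was put on leaves of three Nicotiana benthamiana plants. Samples came from the inoculated region at 5 days, the leaf margin at 10 and upper systemic leaves at 12.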

Region: loop 15 of PSTVd (intermediate strain), upper and lower strand joined, each 5' to 3', the first 7 letters being the upper strand, closing pairs included. Wild type: GGAAACCGCUACUAC. Varied positions (N): GGAAACCGNNNNNNC.

Numbers give reads per thousand; 0 = not seen among the reads, higher = more abundant. Each value is the mean of three plants. "Pool" is the share in the plasmid pool used as inoculum, on the same scale. The inoculated region was read from the minus strand, the other sites from the plus strand. With 43,870-66,106 reads a sample, very low values are single reads. Wild type was 33.9 per thousand in the pool and the most common sequence in every sample (inoculated region 202, 200, 159; leaf margin 724, 746, 710; systemic leaves 856, 883, 880). The authors trace changes outside the varied positions to PCR and sequencing errors or to mutation in the plant; presence does not show that a variant is infectious alone.

GGAAACCGAAAUUCC (pool 0.288) read inoculated region 0.100; leaf margin 0.00668; systemic leaves 0.00537.
GGAAACCGACAGCCC (pool 0.192) read inoculated region 0.0662; leaf margin 0.0175; systemic leaves 0.
GGAAACCGAAUACAC (pool 0.256) read inoculated region 0.340; leaf margin 0.0308; systemic leaves 0.0107.
GGAAACCGCCCGCGC (pool 0.224) read inoculated region 0.129; leaf margin 0.0254; systemic leaves 0.
GGAAACCGACACUGC (pool 0.208) read inoculated region 0.337; leaf margin 0.0844; systemic leaves 0.0268.
GGAAACCGGAUAUUC (pool 0.272) read inoculated region 0.0959; leaf margin 0.0208; systemic leaves 0.
GGAAACCGCUGGACC (pool 0.128) read inoculated region 0.0948; leaf margin 0.0148; systemic leaves 0.
GGAAACCGUCGAGAC (pool 0.256) read inoculated region 0.0805; leaf margin 0.0215; systemic leaves 0.
GGAAACCGCAACAUC (pool 0.288) read inoculated region 0.0828; leaf margin 0.0128; systemic leaves 0.
GGAAACCGCAUGGAC (pool 0.240) read inoculated region 0.118; leaf margin 0; systemic leaves 0.
GGAAACCGUGCGGCC (pool 0.256) read inoculated region 0.106; leaf margin 0; systemic leaves 0.
GGAAACCGACGGCAC (pool 0.240) read inoculated region 0.145; leaf margin 0.0121; systemic leaves 0.00537.
GGAAACCGCAAUCAC (pool 0.144) read inoculated region 0.308; leaf margin 0.0941; systemic leaves 0.0268.
GGAAACCGACAAUGC (pool 0.208) read inoculated region 0.346; leaf margin 0.123; systemic leaves 0.0268.
GGAAACCGUUAACGC (pool 0.176) read inoculated region 0.345; leaf margin 0.0680; systemic leaves 0.0161.
GGAAACCGGGGGUUC (pool 0.144) read inoculated region 0.0525; leaf margin 0; systemic leaves 0.00537.
GGAAACCGAUCCCAC (pool 0.160) read inoculated region 0.0739; leaf margin 0.00539; systemic leaves 0.
GGAAACCGAAGUUAC (pool 0.256) read inoculated region 0.452; leaf margin 0.118; systemic leaves 0.0211.
GGAAACCGUUAUGCC (pool 0.288) read inoculated region 0.152; leaf margin 0.00742; systemic leaves 0.
GGAAACCGACCACAC (pool 0.208) read inoculated region 0.0569; leaf margin 0.00668; systemic leaves 0.
GGAAACCGCUAUGUC (pool 0.352) read inoculated region 0.247; leaf margin 0.0321; systemic leaves 0.0155.
GGAAACCGUAUUCAC (pool 0.320) read inoculated region 0.192; leaf margin 0; systemic leaves 0.00504.
GGAAACCGGGGCAAC (pool 0.208) read inoculated region 0.0901; leaf margin 0.00668; systemic leaves 0.
GGAAACCGACGCCCC (pool 0.256) read inoculated region 0.129; leaf margin 0.0256; systemic leaves 0.00537.
GGAAACCGACACCAC (pool 0.128) read inoculated region 0.343; leaf margin 0.103; systemic leaves 0.
GGAAACCGGGGUGUC (pool 0.224) read inoculated region 0.122; leaf margin 0; systemic leaves 0.00537.
GGAAACCGUGUUUUC (pool 0.192) read inoculated region 0.0886; leaf margin 0.0282; systemic leaves 0.

4 of these entries, quoted again:

{"sequence": "GGAAACCGUCGAGAC", "pool": "0.256", "inoculated region": 0.0805, "leaf margin": 0.0215, "systemic leaves": 0}
{"sequence": "GGAAACCGCAUGGAC", "pool": "0.240", "inoculated region": 0.118, "leaf margin": 0, "systemic leaves": 0}
{"sequence": "GGAAACCGCAAUCAC", "pool": "0.144", "inoculated region": 0.308, "leaf margin": 0.0941, "systemic leaves": 0.0268}
{"sequence": "GGAAACCGCUAUGUC", "pool": "0.352", "inoculated region": 0.247, "leaf margin": 0.0321, "systemic leaves": 0.0155}